A mixed list of measured activities; the numbers were collected in NIAID ChemDB.

All rows: enzyme or target tests; agent: HIV-1; target: Reverse transcriptase; endpoint: inhibition

Percent inhibition refers to the dose given; in toxicity tests it is the harm to the cells. Neighbouring rows are from separate reports.

{"compound": "Cc1cccc(CSc2nc(Cc3ccccc3)c(C)c(=O)[nH]2)c1", "dose": "100 µM", "method": "ELISA", "value": "0%"}
{"compound": "CCN1c2ccc(C)cc2N(C)C(=O)c2ccnnc21", "dose": "33 µM", "value": "43%"}
{"compound": "Oc1ccc(-c2[nH]ncc2-c2ccccc2)c(O)c1", "dose": "100 µM", "method": "nucleotide incorporation / fluorescence", "value": "35%"}
{"compound": "COC(=O)c1cc(O)c(O)c(O)c1", "dose": "12.5 µM", "method": "ELISA", "value": "17%"}
{"compound": "CCCN1c2ccc(C)cc2N(C)C(=O)c2cc(Cl)nnc21", "dose": "33 µM", "value": "0%"}
{"compound": "O=c1cc(-c2ccc(O)cc2)oc2c([C@@H]3O[C@H](CO)[C@@H](O)[C@H](O)[C@H]3O)c(O)cc(O)c12", "dose": "200 µg/mL", "method": "nucleotide incorporation / radiometric", "value": "42.1%"}
{"compound": "O=C(NCCc1ccccc1)Nc1ccccc1", "dose": "1 µg/mL", "method": "nucleotide incorporation", "value": "16%"}
{"compound": "CCCN1c2ccccc2N(C)C(=O)c2ccnnc21", "dose": "330 µM", "value": "85%"}
{"compound": "COc1ccc2c(c1)N(C)C(=O)c1ccnnc1O2", "dose": "33 µM", "method": "ELISA", "value": "18%"}
{"compound": "O=C(CC(=O)Nc1ncc(O)cc1O)Nc1ccc2ccccc2n1", "dose": "100 µM", "method": "RT activity / absorbance", "value": "82.32%"}
{"compound": "CCCCN1C(=O)c2ccnnc2Oc2ccc(C)cc21", "dose": "330 µM", "method": "ELISA", "value": "44%"}
{"compound": "Cc1ccc2c(c1)[C@](O)(CC(=O)c1ccccc1O)C(=O)N2", "dose": "100 µM", "method": "nucleotide incorporation / fluorescence", "value": "12%"}
{"compound": "C=C(C)OC(=O)N1c2ccccc2C=CC1C#N", "dose": "50 µM", "method": "nucleotide incorporation", "value": "≤30%"}
{"compound": "O=C(OC1[C@H](O)CC(O)(C(=O)O)C[C@H]1O)c1cc(O)c(O)c(O)c1", "dose": "20 µg/mL", "method": "nucleotide incorporation", "value": "0%"}
{"compound": "Cc1c(Cc2ccccc2)nc(SCc2ccc(C(C)(C)C)cc2)[nH]c1=O", "dose": "100 µM", "method": "ELISA", "value": "0%"}
{"compound": "O=C(O[C@@H]1[C@@H](c2c(O)cc(O)c3c2O[C@H](c2ccc(O)c(O)c2)[C@H](OC(=O)c2cc(O)c(O)c(O)c2)C3)c2c(O)cc(O)cc2O[C@@H]1c1ccc(O)c(O)c1)c1cc(O)c(O)c(O)c1", "dose": "20 µg/mL", "method": "nucleotide incorporation", "value": "0%"}
{"compound": "Cc1cccc(NC(=O)CC(=O)Nc2ccc3ccccc3n2)n1", "dose": "100 µM", "method": "RT activity / absorbance", "value": "82.2%"}
{"compound": "NOCc1c(F)cccc1Cl", "dose": "100 µg/mL", "method": "nucleotide incorporation", "value": "2%"}
{"compound": "COC(=O)C(=O)c1csc(NC(=O)NCCc2ccccc2)n1", "dose": "10 µg/mL", "method": "nucleotide incorporation", "value": "13%"}
{"compound": "Cc1ccc2c(c1)N(CC(C)C)C(=O)c1ccnnc1O2", "dose": "33 µM", "method": "ELISA", "value": "33%"}
{"compound": "O=C(OC1[C@H](O)CC(OC(=O)c2cc(O)c(O)c(O)c2)(C(=O)O)C[C@H]1O)c1cc(O)c(O)c(O)c1", "dose": "20 µg/mL", "method": "nucleotide incorporation", "value": "0%"}
{"compound": "C=C(C)C1C=C[C@@H](OC(=O)c2cccnc2)C23COC(C)(C(=O)[C@@]4(OC(C)=O)C[C@H](C)[C@H](OC(=O)CC)C4[C@H]2OC(=O)CC)C13", "dose": "200 µg/mL", "method": "nucleotide incorporation", "value": "49.5%"}
{"compound": "Cc1c(Cc2ccccc2)nc(SCc2ccccc2)[nH]c1=O", "dose": "100 µM", "method": "ELISA", "value": "0%"}
{"compound": "CCN1c2ncccc2C(=O)Nc2c(COc3ccccc3)cc(OC)nc21", "dose": "17 µM", "mutations": "RT-Y181C", "value": "1%"}
{"compound": "COc1ccc2c(c1)C=CC(C#N)N2C(=O)Oc1ccc(Cl)cc1", "dose": "50 µM", "method": "nucleotide incorporation", "value": "≤30%"}
{"compound": "CCOc1ccccc1CCNC(=S)Nc1nccs1", "dose": "0.1 µg/mL", "method": "nucleotide incorporation", "value": "12%"}
{"compound": "CCCN1C(=O)c2ccnnc2N(C2CC2)c2ccccc21", "dose": "33 µM", "value": "46%"}
{"compound": "Cc1ccc2c(c1)N(C(C)C)C(=O)c1ccnnc1O2", "dose": "33 µM", "method": "ELISA", "value": "44%"}
{"compound": "O=C(CC(=O)Nc1ncc(F)cc1F)Nc1ccc2ccccc2n1", "dose": "100 µM", "method": "RT activity / absorbance", "value": "88.11%"}
{"compound": "CC(C)=CCc1c(O[C@@H]2O[C@H](CO)[C@@H](O)[C@H](O)[C@H]2O)cc2c(c1O)C(=O)[C@H](O)[C@@H](c1ccc(O)c(O)c1)O2", "dose": "200 µg/mL", "method": "nucleotide incorporation / radiometric", "value": "0%"}
{"compound": "C[C@@H](Cc1c[nH]c2ccccc12)NC(=O)CCn1c(=O)[nH]c2ccccc2c1=O", "dose": "100 µM", "method": "nucleotide incorporation / fluorescence", "value": "27%"}
{"compound": "CCN1c2ncccc2C(=O)Nc2c(C3OCCCO3)cc(-c3cccc(OC)c3)nc21", "dose": "40 µM", "strain or isolate": "WT", "value": "1%"}
{"compound": "CCN1c2ncc(C3(c4ccccc4)CO3)cc2C(=O)N(C)c2ccc(Cl)nc21", "dose": "1 µM", "strain or isolate": "WT", "method": "nucleotide incorporation / radiometric", "value": "76%"}
{"compound": "CC(C)=CCc1c(O[C@@H]2O[C@H](CO)[C@@H](O)[C@H](O)[C@H]2O)cc2c(c1O)C(=O)[C@H](O)[C@@H](c1ccc(O)cc1)O2", "dose": "200 µg/mL", "method": "nucleotide incorporation / radiometric", "value": "0%"}
{"compound": "CCCCN1C(=O)c2cc(Cl)nnc2N(C2CC2)c2ccccc21", "dose": "330 µM", "value": "11%"}
{"compound": "CCN1c2nc(Cl)ccc2NC(=O)c2cc(CCc3cccc(NS(C)(=O)=O)c3)cnc21", "dose": "1 µM", "method": "nucleotide incorporation / radiometric", "mutations": "RT-Y181C", "value": "70%"}
{"compound": "CC(C)Nc1cccnc1N(C)CCCCCCN(C)C(=O)c1cc2ccccc2[nH]1", "dose": "100 µM", "method": "nucleotide incorporation", "value": "84.5%"}
{"compound": "CCN1c2ncc(CCc3ccc(N(C)S(C)(=O)=O)cc3)cc2C(=O)N(C)c2ccc(Cl)nc21", "dose": "1 µM", "strain or isolate": "WT", "method": "nucleotide incorporation / radiometric", "value": "48%"}
{"compound": "CC(=O)NC1C(O)OC(CO)C(O)C1OC1OC(C(=O)[O-])C(OC2OC(CO)C(O)C(OC3OC(C(=O)[O-])C(O)C(O)C3O)C2NC(C)=O)C(O)C1O.[Na+].[Na+]", "dose": "50 µg/mL", "method": "RT activity", "value": "10%"}
{"compound": "O=C(NCCc1ccccc1)Nc1ccccc1Cl", "dose": "1 µg/mL", "method": "nucleotide incorporation", "value": "31%"}
{"compound": "O=C1NC(c2c[nH]c3ccccc23)=C/C1=C1\\C(=O)NC2C=CC=CC12", "dose": "500 µM", "method": "RT activity / ELISA", "value": "12.78%"}
{"compound": "CC(C)Nc1cccnc1OCCOC(=O)c1cc2ccccc2[nH]1", "dose": "100 µM", "method": "nucleotide incorporation", "value": "67%"}
{"compound": "CCCN1c2ccc(C)cc2N(CC)C(=O)c2ccnnc21", "dose": "330 µM", "value": "57%"}
{"compound": "CCCCCCCCCCCCCCCC(=O)NC1C(COP(=O)(O)OC2C(O)C(COP(=O)(O)OC3C(O)C(CO)OC3n3cnc4c(N)ncnc43)OC2n2cnc3c(N)ncnc32)OC(n2cnc3c(N)ncnc32)C1O", "dose": "100 µM", "value": "0%"}
{"compound": "O=C(CC(=O)Nc1ccc2ccccc2n1)Nc1cc(Cl)ccn1", "dose": "100 µM", "method": "RT activity / absorbance", "value": "65.41%"}
{"compound": "CC(C)Nc1cccnc1N1CCC(C2CCN(C(=O)c3cc4ccccc4[nH]3)CC2)CC1", "dose": "100 µM", "method": "nucleotide incorporation", "value": "0%"}
{"compound": "N#Cc1ccc(NC(=O)CC(=O)Nc2ccc3ccccc3n2)nc1", "dose": "100 µM", "method": "RT activity / absorbance", "value": "86.65%"}
{"compound": "Cc1cc(C)c2c(c1)N(CC1CC1)C(=O)c1cc(Cl)nnc1O2", "dose": "330 µM", "method": "ELISA", "value": "31%"}
{"compound": "CCN1c2ncccc2C(=O)Nc2c(C3OCCCO3)cc(OC)nc21", "dose": "22 µM", "mutations": "RT-Y181C", "value": "1%"}
{"compound": "CC(C)Nc1cccnc1N(C)CC(C)(C)CN(C)C(=O)c1cc2ccccc2[nH]1", "dose": "100 µM", "method": "nucleotide incorporation", "value": "29%"}
{"compound": "CCCCCCCCCCCCCCCC(=O)NC1C(COP(=O)(O)OC2CC(COP(=O)(O)OC3C(O)C(CO)OC3n3cnc4c(N)ncnc43)OC2n2cnc3c(N)ncnc32)OC(n2cnc3c(N)ncnc32)C1O", "dose": "100 µM", "value": "50%"}
{"compound": "CCNc1cccnc1N1CCN(CCCc2cc(C)c(OC)c(C)c2)CC1", "dose": "100 µM", "method": "nucleotide incorporation", "value": "31%"}
{"compound": "O=C(c1cc2ccccc2[nH]1)N1CCN(C(=O)c2cccc3[nH]ccc23)CC1", "dose": "100 µM", "method": "nucleotide incorporation / fluorescence", "value": "38%"}
{"compound": "CC(C)COC(=O)N1c2ccccc2C=CC1C#N", "dose": "50 µM", "method": "nucleotide incorporation", "value": "82.6%"}
{"compound": "CCN1c2ncc(CCc3ccncc3)cc2C(=O)N(C)c2ccc(C#N)nc21", "dose": "1 µM", "method": "nucleotide incorporation / radiometric", "mutations": "RT-Y181C", "value": "82%"}
{"compound": "O=C(CC(=O)Nc1ccc2ccccc2n1)Nc1ccccn1", "dose": "100 µM", "method": "RT activity / absorbance", "value": "79.18%"}
{"compound": "C=C(C)C1C=C[C@@H](OC(=O)c2cccnc2)C23COC(C)(C(=O)[C@@]4(OC(C)=O)C[C@H](C)[C@H](OC(=O)CCC)C4[C@H]2OC(=O)CC)C13", "dose": "200 µg/mL", "method": "nucleotide incorporation", "value": "93.1%"}
{"compound": "C=CCN1C(=O)c2ccnnc2Oc2c(C)cc(C)cc21", "dose": "330 µM", "method": "ELISA", "value": "93%"}
{"compound": "Cc1nc(NC(=O)NCCc2ccccc2)sc1C", "dose": "10 µg/mL", "method": "nucleotide incorporation", "value": "38%"}
{"compound": "CC(C)Nc1cccnc1N1CCCN(C(=O)c2cc3ccccc3[nH]2)CC1", "dose": "100 µM", "method": "nucleotide incorporation", "value": "94%"}
{"compound": "O=C(NCCc1ccccc1)Nc1cnccn1", "dose": "1 µg/mL", "method": "nucleotide incorporation", "value": "27%"}
{"compound": "N#CC1C=Cc2ccccc2N1C(=O)OC1CCCC1", "dose": "50 µM", "method": "nucleotide incorporation", "value": "43.2%"}
{"compound": "CCN1c2ncccc2C(=O)Nc2c(C=O)cc(=O)[nH]c21", "dose": "6 µM", "mutations": "RT-Y181C", "value": "1%"}
{"compound": "COc1ccc(-c2nc3c(=O)n(C)c(=O)[nH]c3n2CCc2ccccc2)cc1", "dose": "100 µM", "method": "nucleotide incorporation / fluorescence", "value": "4%"}
{"compound": "N#CC1C=Cc2ccccc2N1C(=O)OCCBr", "dose": "50 µM", "method": "nucleotide incorporation", "value": "≤30%"}

Again, the opening 8 rows:

Cc1cccc(CSc2nc(Cc3ccccc3)c(C)c(=O)[nH]2)c1 ; dose: 100 µM ; method: ELISA ; value: 0%
CCN1c2ccc(C)cc2N(C)C(=O)c2ccnnc21 ; dose: 33 µM ; value: 43%
Oc1ccc(-c2[nH]ncc2-c2ccccc2)c(O)c1 ; dose: 100 µM ; method: nucleotide incorporation / fluorescence ; value: 35%
COC(=O)c1cc(O)c(O)c(O)c1 ; dose: 12.5 µM ; method: ELISA ; value: 17%
CCCN1c2ccc(C)cc2N(C)C(=O)c2cc(Cl)nnc21 ; dose: 33 µM ; value: 0%
O=c1cc(-c2ccc(O)cc2)oc2c([C@@H]3O[C@H](CO)[C@@H](O)[C@H](O)[C@H]3O)c(O)cc(O)c12 ; dose: 200 µg/mL ; method: nucleotide incorporation / radiometric ; value: 42.1%
O=C(NCCc1ccccc1)Nc1ccccc1 ; dose: 1 µg/mL ; method: nucleotide incorporation ; value: 16%
CCCN1c2ccccc2N(C)C(=O)c2ccnnc21 ; dose: 330 µM ; value: 85%